Our source for the stoichiometry N values is paper PMC11032465, “Structure and design of Langya virus glycoprotein antigens” (2024).

In general, stoichiometry N refers to the number of molecules, sites or subunits per partner or assembly.

Assay [1] deals with LayV F I167F/S186P ectodomain fused to a C-terminal GCN4 trimerization motif (Langya virus). Description: negative-stain EM.
Assay [2] deals with LayV F N95C/A114C ectodomain fused to a C-terminal GCN4 trimerization motif (Langya virus). Description: negative-stain EM.

For the substance “LayV F I167F/S186P ectodomain fused to a C-terminal GCN4 trimerization motif (domain or fragment)”, in assay [1], the stoichiometry N was determined as 3. “LayV F N95C/A114C ectodomain fused to a C-terminal GCN4 trimerization motif (domain or fragment)” gave a stoichiometry N in assay [2] of 3.
